Data: PMC6465249 (Cell Discovery, 2019)

Molecular target: H3-AC/68 HA (hemagglutinin of H3N2 A/Aichi/2/1968) (Influenza A virus A/Aichi/2/1968 (H3N2), strain, N-linked glycan at Asn38 of HA1)
Assay: crystal structure

B1: AF4H1K1 Fab (Fab, V domains shown)
VH: QVQLVESGGGVVQPGTSLRLSCEASGFTSSAYAMHWVRQAPGKGLEWVAVITFDGGYQYYADSVKGRFTISRDISRNTLHLHMNSLRAEDTAVYYCARDPLTKLLPFDWVSGGYFDYWGQGTLVTVSS
VL: not shown
notes: also called AF4H1K1 Fab fragment
binding result: binds
